Compound potency records, mixed from different reports. Data source: NIAID ChemDB in PubChem.

All rows: tests in culture; organism: Mycobacterium bovis; measure: MIC

a–b is a range or a potency band. Neighbouring rows are from separate reports.

structure,strain,result
C=C/C(C)=C/[C@@]1(C)SC(=O)C(C)=C1O,BCG (PMV261::KASB),100 µg/mL
CCCCCCCCO[C@H]1COc2nc([N+](=O)[O-])cn2C1,rBCG-lux,8 µg/mL
COc1ccc2c(c1NC(=S)Nc1ccc([N+](=O)[O-])cc1)C(C)(C)COC2(C)C,BCG,20–40 µg/mL
C[C@]1(COc2ccc(N3CCC(Oc4ccc(OC(F)(F)F)cc4)CC3)cc2)Cn2cc([N+](=O)[O-])nc2O1,BCG Pasteur,0.006 µg/mL
CCOC(=O)c1ccc(NC(=O)Nc2ccc3c(c2)C(C)=CC(C)(C)N3C)cc1,BCG,20–40 µg/mL
CCCSc1ccc(NC(=S)Nc2ccc(OCCC(C)C)cc2)cc1,BCG,1.5 µg/mL
NNC(=O)c1ccncc1,BCG (PMV261::KASB),0.05 µg/mL
CCCCOc1ccc(NC(=S)Nc2ccc(SCC(C)C)cc2)cc1,BCG,0.5 µg/mL
C/C=C/C/C=C/CCC(=O)[C@H]1O[C@H]1C(N)=O,BCG (PMV261::KASB),0.2 µg/mL
CCOC(=O)c1ccc(NC(=S)Nc2ccc3c(c2)C(C)=CC(C)(C)N3C)cc1,BCG,20–40 µg/mL
O=[N+]([O-])c1cn2c(n1)OCC(O)C2,rBCG-lux,>128 µg/mL
CCOC(=O)c1ccc(NC(=S)Nc2cccc3c2OC(C)(C)CC3(C)C)cc1,BCG,20–40 µg/mL
CCCCCCCCO[C@@H]1COc2nc([N+](=O)[O-])cn2C1,rBCG-lux,1 µg/mL
CCc1cc(C(N)=S)ccn1,BCG (PMV261::KASAB),1.5 µg/mL
COC(=O)c1ccc(C(=O)Oc2ccc3c(c2)OC(C)(C)C=C3C)cc1,BCG,2–4 µg/mL

A second listing of 2 rows from above:

structure,strain,result
C=C/C(C)=C/[C@@]1(C)SC(=O)C(C)=C1O,BCG (PMV261::KASB),100 µg/mL
CCOC(=O)c1ccc(NC(=S)Nc2ccc3c(c2)C(C)=CC(C)(C)N3C)cc1,BCG,20–40 µg/mL